Experiment: Bleaching of blue dye in ACUVUE 2 contact lens soaked in Unisol 4 (visual and UV/VIS)

Row | Structure (SMILES) | blue color of contact lens, visual observation (100 mg/L or 500 mg/L in Unisol 4, storage for 2 months) | bleaching by UV/VIS spectra (absorption bands near 600 nm) (500 ppm and 100 ppm in Unisol 4, refreshed daily, 2 months (FIG. 1)) | time to complete disappearance of blue color, visual observation (100 mg/L in Unisol 4) | time to complete disappearance of blue color, visual observation (500 mg/L in Unisol 4)
1 | CC1(C)NC(=O)C(C)(C)N1Cl [compound 1, 1-chloro-2,2,5,5-tetramethyl-4-imidazolidinone] | did not appear to change | little bleaching occurred | – | –
2 | CC1(C)CC(O)CC(C)(C)N1Cl [compound 2, 1-chloro-2,2,6,6-tetramethyl-4-piperidinol, reference compound] | – | – | ≤ 2 weeks | within a week

From patent US8883077B2, “Disinfecting, nonbleaching N-halamine for use with contact lens” (Auburn University, priority 2010, dated 2014)
